Here are results for one molecule from ChEMBL document CHEMBL1142558, “A new polyether ladder compound produced by the dinoflagellate Karenia brevis” (J Nat Prod, 2005).

Each structure is given as a SMILES string.

The test system of this data set is Gambusia affinis. In words: Toxicity against Gambusia affinis assessed as mortality at 1 ug/ml after 7.5 min. Particulars: in vivo, 0.125 h.

Regarding `C=C(C=O)C[C@@H]1C[C@H](O)[C@]2(C)O[C@@H]3C[C@@H]4O[C@@H]5C[C@]6(C)O[C@]7(C)CC[C@@H]8O[C@@H]9C[C@]%10(C)O[C@@H]%11C(C)=CC(=O)O[C@H]%11C[C@H]%10O[C@H]9C[C@@H](C)[C@H]8O[C@H]7C[C@H]6O[C@@]5(C)C/C=C\[C@H]4O[C@H]3C[C@H]2O1` [BREVETOXIN B], the Activity came out at 100%.
